Measured values from several laboratories, pooled; numbers as filed in NIAID ChemDB.

Common to all: tests on isolated targets; organism: HIV-1; target: Reverse transcriptase; read by: nucleotide incorporation / radiometric; read-out: IC50

Lines come from different laboratories, so protocols vary.

structure | strain or isolate | mutations | value
CCN1c2ncc(CCOc3ccc4cc(CC(=O)NN)ccc4c3)cc2C(=O)N(C)c2cccnc21 |  | RT-V106A | <0.1 µM
CCN1c2ncc(CCOc3ccc(S(=O)(=O)c4ccc(C(=O)O)cc4)cc3C)cc2C(=O)N(C)c2cccnc21 | IIIB | RT-K103N Y181C | <0.05 µM
Cc1cc(C)c(-n2c(SCC(=O)Nc3ccc(S(N)(=O)=O)cc3Cl)nnc2C(F)(F)F)c2c1CCCC2 |  | RT-Y181C | >0.1 µM
CCN1c2ncc(CCOc3ccc(CC(=O)O)c4c3CCCC4)cc2C(=O)N(C)c2ccc(Cl)nc21 |  | RT-V106A | 0.1–1 µM
CCN1c2ncc(CCOc3ccc(-c4ccc(C(=O)O)o4)cc3C)cc2C(=O)N(C)c2cccnc21 | IIIB |  | <0.05 µM
NS(=O)(=O)c1ccc(NC(=O)CSc2nnc(Br)n2-c2ccc(C3CC3)c3ccccc23)c(Cl)c1 |  | RT-Y181C | <0.05 µM
O=C(O)CCNC(=O)c1ccc(NC(=O)CSc2nnc(Br)n2-c2ccc(C3CC3)c3ccccc23)c(Cl)c1 |  | RT-Y188L | >0.1 µM
CCN1c2nc(C(F)(F)F)ccc2NC(=O)c2cc(CCOc3cc[n+]([O-])c4ccccc34)cnc21 | IIIB |  | 0.035 µM
COc1ccc2cccc(-n3c(Br)nnc3SCC(=O)Nc3ccc(C(=O)O)cc3Cl)c2c1 |  | RT-Y181C | <0.05 µM
CCN1c2ncc(CCOc3ccc(C(=O)NNC)cc3C)cc2C(=O)N(C)c2cccnc21 | IIIB | RT-K103N Y181C | <0.05 µM
CCN1c2ncc(CCOc3ccc(C(=O)O)c4c3CCCC4)cc2C(=O)N(C)c2ccc(F)nc21 |  | RT-V106A | >1 µM
CCc1ccc(-n2c(Br)nnc2SCC(=O)Nc2ccc(S(N)(=O)=O)cc2Cl)c2ccccc12 |  | RT-Y188L | 0.05–0.1 µM
COC(=O)[C@H](CC(C)C)NC(=O)c1ccc(NC(=O)CSc2nnc(Br)n2-c2ccc(C3CC3)c3ccccc23)c(Cl)c1 |  | RT-Y188L | 0.05–0.1 µM
COc1ccc2c(C)ccc(-n3c(Br)nnc3SCC(=O)Nc3ccc(C(=O)O)cc3Cl)c2c1 |  |  | <0.05 µM
O=C(CSc1nnc(Br)n1-c1ccc(C2CC2)c2ccccc12)Nc1ccc(C(=O)N[C@@H](Cc2ccc(O)cc2)C(=O)O)cc1Cl |  | RT-Y181C | <0.05 µM
CCc1ccc(-n2c(Br)nnc2SCC(=O)Nc2ccc(S(N)(=O)=O)cc2Cl)c2c1CCCC2 |  | RT-Y188L | 0.05–0.1 µM
CCc1ccc(-n2c(CF)nnc2SCC(=O)Nc2ccc(C(=O)O)cc2Cl)c2ccccc12 |  | RT-Y188L | >0.1 µM
Cc1cc(C2CC2)cc(C)c1-n1c(Br)nnc1SCC(=O)Nc1ccc(C(=O)O)cc1Cl |  | RT-Y181C | <0.05 µM
CCN1c2ncc(CCOc3ccc(-c4ccc(C(=O)O)cn4)cc3C)cc2C(=O)N(C)c2cccnc21 | IIIB |  | <0.05 µM
CCN1c2ncc(CCOc3ccc(CC(=O)NN)c4ccccc34)cc2C(=O)N(C)c2ccc(Cl)nc21 | WT |  | <0.1 µM
Cc1cc(C)c2ccccc2c1-n1c(SCC(=O)Nc2ccc(S(N)(=O)=O)cc2Cl)nnc1C(F)(F)F |  | RT-Y181C | <0.05 µM
CCN1c2ncc(CCOc3ccc(-c4cn(C)cn4)cc3C)cc2C(=O)N(C)c2cccnc21 | IIIB | RT-K103N Y181C | <0.05 µM
Cc1cc(C(=O)O)ccc1NC(=O)CSc1nnc(C(F)F)n1-c1ccc(C)c2c1CCCC2 |  |  | <0.05 µM
CCN1c2ncc(CCOc3ccc(-c4cc(C(=O)O)on4)cc3C)cc2C(=O)N(C)c2cccnc21 | IIIB |  | <0.05 µM
NS(=O)(=O)c1ccc(NC(=O)CSc2nnc(Br)n2-c2ccc(C3CC3)c3c2CCCC3)c(Cl)c1 |  |  | <0.05 µM
O=C(CSc1nnc(C(F)F)n1-c1ccc(C2CC2)c2ccccc12)Nc1ccc(C(=O)O)cc1Cl |  |  | <0.05 µM
CCN1c2ncc(CCOc3ccc(-c4ccc(C(=O)O)cc4)c(Cl)c3)cc2C(=O)N(C)c2cccnc21 | IIIB | RT-K103N Y181C | 0.05–0.1 µM
CCc1ccc(-n2c(Br)nnc2SCC(=O)Nc2ccc(C(=O)N3CCC(O)CC3)cc2Cl)c2ccccc12 |  | RT-Y181C | <0.05 µM
CCN1c2ncc(CCOc3ccc(N(Cc4ccc(C(=O)O)cc4)C(C)=O)cc3C)cc2C(=O)N(C)c2cccnc21 | IIIB | RT-K103N Y181C | >0.1 µM
CCc1ccc(-n2c(Br)nnc2SCC(=O)Nc2ccc(C(=O)O)cc2Cl)c2ccccc12 |  | RT-Y188L | >0.1 µM
CC(C)C[C@H](NC(=O)c1ccc(NC(=O)CSc2nnc(Br)n2-c2ccc(C3CC3)c3ccccc23)c(Cl)c1)C(=O)O |  |  | <0.05 µM

4 of the rows above, restated:

structure	strain or isolate	mutations	value
NS(=O)(=O)c1ccc(NC(=O)CSc2nnc(Br)n2-c2ccc(C3CC3)c3c2CCCC3)c(Cl)c1			<0.05 µM
CCN1c2ncc(CCOc3ccc(N(Cc4ccc(C(=O)O)cc4)C(C)=O)cc3C)cc2C(=O)N(C)c2cccnc21	IIIB	RT-K103N Y181C	>0.1 µM
CCN1c2ncc(CCOc3ccc(-c4cc(C(=O)O)on4)cc3C)cc2C(=O)N(C)c2cccnc21	IIIB		<0.05 µM
Cc1cc(C)c(-n2c(SCC(=O)Nc3ccc(S(N)(=O)=O)cc3Cl)nnc2C(F)(F)F)c2c1CCCC2		RT-Y181C	>0.1 µM

a–b is a range or a potency band. Blank or dashed fields: not listed here. ICn is the concentration giving n% inhibition.